# RC index of single-base changes in HIV-1 Vpr

Values reported by Al-Mawsawi et al. 2014 (doi:10.1186/s12977-014-0124-6).

Protein: Vpr of HIV-1 NL4-3, numbered from its first residue. The source prints no sequence; the chain below is taken from UniProt P12520, a closely related isolate, and fits the source at the 71 positions it covers.
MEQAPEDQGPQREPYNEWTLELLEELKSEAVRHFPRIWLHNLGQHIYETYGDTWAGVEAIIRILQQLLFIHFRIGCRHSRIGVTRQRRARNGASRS
"Other frame" gives the effect on an overlapping gene as the source lists it; other overlaps (genes, RNA elements) are not shown.

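Seven fragments of pNL4-3 were mutated by error-prone PCR, and each virus pool was passaged in CEM T cells. The RC index is the frequency of a change after passage round 2 divided by its frequency in the plasmid library.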

RC index: lower means poorer replication; rough cut-offs are 0.1 (lethal) and 0.2 (tolerated). Substitutions are written as wild-type residue, site number, new residue. Input reads are the counts in the plasmid library.

| mutation | base | other frame | input reads | replication capacity index |
|---|---|---|---|---|
| I74V | A5778G | none | 217 | 0.0500 |
| H78L | A5791T | none | 420 | 0.371 |
| G51E | G5710A | none | 176 | 0.660 |
| G56E | G5725A | none | 214 | 0.374 |
| E24D | G5630T | none | 436 | 0.0689 |
| G82S | G5802A | none | 177 | 0.409 |
| T53N | C5716A | none | 172 | 0.0698 |
| I70F | A5766T | none | 182 | 0.0597 |
| G75R | G5781C | none | 48 | 0.113 |
| E25G | A5632G | none | 376 | 0.0479 |
| N91D | A5829G | none | 377 | 0.115 |
| L22V | C5622G | none | 116 | 0.0345 |
| Q44K | C5688A | none | 57 | 0.211 |
| H33Q | T5657A | none | 385 | 0.0364 |
| E24V | A5629T | none | 281 | 0.0499 |
| G51R | G5709A | none | 277 | 0.304 |
| Q44H | A5690T | none | 522 | 0.0614 |
| W54R | T5718A | none | 440 | 0.0227 |
| S79R | C5795A | none | 70 | 0.103 |
| D52G | A5713G | none | 256 | 0.0704 |
| T84I | C5809T | none | 116 | 0.484 |
| F72L | T5772C | none | 355 | 0.127 |
| W54G | T5718G | none | 114 | 0.0351 |
| L26F | C5634T | none | 399 | 0.110 |
| H33N | C5655A | none | 73 | 0.0823 |
| P35H | C5662A | none | 423 | 0.0994 |
| I81T | T5800C | none | 230 | 0.496 |
| S28I | G5641T | none | 293 | 0.0752 |
| R87M | G5818T | none | 267 | 0.0949 |
| L39F | C5673T | none | 561 | 0.0464 |
| R73S | A5777T | none | 204 | 0.0710 |
| H45Y | C5691T | none | 395 | 0.147 |
| G75A | G5782C | none | 67 | 0.108 |
| H45L | A5692T | none | 392 | 0.0460 |
| G9R | G5583A | Vif silent | 73 | 0.780 |
| S94R | A5838C | Tat silent | 71 | 0.637 |
| F34I | T5658A | none | 472 | 0.0763 |
| S79T | G5794C | none | 96 | 0.0754 |
| I81K | T5800A | none | 204 | 0.0266 |
| H71L | A5770T | none | 276 | 0.0983 |
| T49S | A5703T | none | 262 | 0.0306 |
| I74T | T5779C | none | 253 | 0.129 |
| H78Q | T5792A | none | 290 | 0.480 |
| F34L | T5660A | none | 271 | 0.0665 |
| Q44R | A5689G | none | 379 | 0.0739 |
| I46V | A5694G | none | 174 | 0.0345 |
| H78R | A5791G | none | 215 | 0.0673 |
| I81V | A5799G | none | 199 | 0.0546 |
| N41K | C5681A | none | 105 | 0.0572 |
| R80I | G5797T | none | 261 | 0.146 |
| I37L | A5667T | none | 391 | 0.0256 |
| R87T | G5818C | none | 70 | 0.0776 |
| H78D | C5790G | none | 49 | 0.111 |
| R80K | G5797A | none | 228 | 0.278 |
| G82V | G5803T | none | 80 | 0.0679 |
| E29K | G5643A | none | 168 | 1.27 |
| L23F | A5627T | none | 476 | 0.0421 |
| E13K | G5595A | Vif silent | 324 | 0.371 |
| I46S | T5695G | none | 36 | 0.167 |
| R85Q | G5812A | none | 227 | 0.399 |
| T84N | C5809A | none | 108 | 0.134 |
| A89S | G5823T | none | 114 | 0.175 |
| R88S | A5822T | none | 290 | 1.29 |
| H40Y | C5676T | none | 228 | 0.0702 |
| F69S | T5764C | none | 312 | 0.0986 |
| I70T | T5767C | none | 158 | 0.115 |
| G43R | G5685A | none | 280 | 0.701 |
| Y47C | A5698G | none | 272 | 0.0368 |
| C76Y | G5785A | none | 266 | 0.367 |
| G75W | G5781T | none | 160 | 0.305 |
| F34Y | T5659A | none | 485 | 0.0495 |
| V31D | T5650A | none | 503 | 0.0438 |
| I46T | T5695C | none | 247 | 0.316 |
| A89G | C5824G | none | 39 | 0.557 |
| L23S | T5626C | none | 307 | 0.0913 |
| P5S | C5571T | Vif silent | 273 | 0.0580 |
| R88G | A5820G | none | 395 | 0.238 |
| S79N | G5794A | none | 288 | 0.189 |
| S79C | A5793T | none | 241 | 0.0300 |
| K27M | A5638T | none | 511 | 0.0274 |
| E48D | A5702T | none | 220 | 0.0728 |

A selection of 6 entries from above:

{"mutation": "G75A", "base": "G5782C", "other frame": "none", "input reads": "67", "replication capacity index": 0.108}
{"mutation": "D52G", "base": "A5713G", "other frame": "none", "input reads": "256", "replication capacity index": 0.0704}
{"mutation": "H78L", "base": "A5791T", "other frame": "none", "input reads": "420", "replication capacity index": 0.371}
{"mutation": "T49S", "base": "A5703T", "other frame": "none", "input reads": "262", "replication capacity index": 0.0306}
{"mutation": "S79N", "base": "G5794A", "other frame": "none", "input reads": "288", "replication capacity index": 0.189}
{"mutation": "E24D", "base": "G5630T", "other frame": "none", "input reads": "436", "replication capacity index": 0.0689}

Base changes are numbered along pNL4-3. The authors read an index above 1 as above wild type (1.9% of all changes in the genome). Since each clone held several changes (about five per kb), neutral changes can read low.